Measurements from the supplement of paper PMC9931576.
Human monoclonal antibodies against the spike receptor-binding domain (heavy:light variable regions). IC50 against pseudoviruses bearing the spike of naturally observed variants; lower = stronger; >10 µg/ml means not reached at the top dose. No active / inactive call. The stated detection limit is 0.0005 µg/ml; values near or below 0.001 µg/ml lie at the floor of the assay.

B1: BD56-1405 (protein)
chain 1: EVQLVQSGAEVKKAGESLKISCKASGYSFISHWIDWVRQKPGKGLEWLGIIYPGDSDTRYSPSFQGQVTISADKSISTAYLQWNSLKASDTAMYYCARHDSLIHGRLDPWGQGTQVTVSS
chain 2: QSVLTQPPSASGTPGQRITISCSGSSSNIGSNTVNWYHQLTGTAPKLLIFGNNQRPSGVPDRVSASKSGTSASLAISGLRSEDEAEYYCAAWDDSLNGYVFGTGTKVTVL
B2: BD56-1432 (protein)
chain 1: QVQLVESGGGVVQPGRSLRLSCAVSGFTFRNHGMHWVRQAPGKGLEWVAVIWYDGTNKYYADSVKGRFTISRDNSKNTLYLQMNSLRAEDTAVYYCARDDGVGGTMDDYFDYWGQGTLVTVSS
chain 2: QSVLTQPASASGTPGQRVTISCSGSGSNIGDNYVYWYQQVPGTAPKLLIYRNSQRPSGVPDRFSGSKSGTSASLAISGLRPEDEADYYCAAWDDSLGGWVFGGGTKVTVL
B3: BD56-1437 (protein)
chain 1: EVQVVESGGGLVQPGGSLRLSCAASGFTFSNYDMHWVRQVTGKGLEWVSIIGTAGDAYYPDSVKGRFTSSRENAKNSLYLQMNSLRAGDTGVYYCARGRGGTYYEGPYLDYWGQGTLVTVSS
chain 2: DIQMTQSPSSLSASVGDRVTITCRASQTIRNYLNWYQQKPGKAPKLLIYAASSLQSGVPSRFSGSGSGTEFSLIISSLQPEDFATYYCQQSYSTPPLTFGGGTKVEIK
B4: BD56-1415 (protein)
chain 1: EVQLVESGGGLVQPGRSLRLSCAASGFTSDDYAMHWVRQAPGKGLEWVSGISWNSVSIGYADSVKGRFTISRDNAKNSLYLQMKSLRAEDTALYYCAKGQNLGSGSYYPAGMDVWGQGTTVTVSS
chain 2: EIVMTQSPATLSVSPGERATLSCRASQSVFSDLAWYQQKPGQAPRLLIYSASIRATGIPTRFSGTGSETEFTLTISSLQSEDFAVYYCQQYNNWPETFGQGTKVEIK
B5: COV2-2819 (protein)
chain 1: QVQLQESGPGLVKPSQTLSLTCTVSGDSISSAGYYWSWIRQHPGKGLEWIGYIYYSGRTYYNPSLKSRVTMSVDTSKNQFSLRLRSVTAADTAVYYCARVVPTRGPVAWFDPWGQGTLVTVSS
chain 2: DIQMTQSPSSLSASVGDRVTITCRASQSISSYLNWYQQRPGKAPKLLIYAASSLQSGVPSRFSGSGSGTDFTLTISTLQPEDFATYYCQQSYSTLLYTFGQGTKLEIK
B6: BD56-1426 (protein)
chain 1: EVQLVESGGDLVKPGGSLRLSCAGSGFSFSNAWVSWVRQAPGKGLEWVGRIKDKTDGGTTDYAAPVKGRFIISRDDSKNTLYLQMNRLRTEDTAVYYCSTGVDIVLMMYPDDAFDIWGQGTMVTVSS
chain 2: SSELTQDPAVSVALGQTVRLTCQGDSLRTYYASWYQQKPGQAPVLVIYGKNNRPSGIPDRFSGSTSGNTASLTITGAQAEDEADYYCNSRDSSGNHVVFGGGTKLTVL

Target: SARS-CoV-2 Omicron BA.1 spike pseudovirus
Assay: pseudovirus neutralization IC50; higher = weaker neutralization
Method: (§1)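 Single-round VSV luciferase pseudovirus mixed with antibody dilutions for 1 h and put on Huh-7 cells for about a day; IC50 from the dose curve.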

Row | Binder | pseudovirus neutralization IC50 [µg/mL]
1 | B1 | 0.412
2 | B2 | 0.556
3 | B3 | > 10
4 | B4 | > 10
5 | B5 | > 10
6 | B6 | > 10

Target: SARS-CoV-2 Omicron BA.2 spike pseudovirus
Assay: as above
Method: as §1

Row | Binder | pseudovirus neutralization IC50 [µg/mL]
7 | B1 | 0.52
8 | B2 | 0.423
9 | B3 | > 10
10 | B4 | > 10
11 | B5 | > 10
12 | B6 | > 10

Target: SARS-CoV-2 Omicron BA.2.75 spike pseudovirus
Assay: as above
Method: as §1

Row | Binder | pseudovirus neutralization IC50 [µg/mL]
13 | B1 | 0.532
14 | B2 | 0.311
15 | B3 | > 10
16 | B4 | > 10
17 | B5 | > 10
18 | B6 | > 10

Target: SARS-CoV-2 Omicron BA.5 spike pseudovirus
Assay: as above
Method: as §1

Row | Binder | pseudovirus neutralization IC50 [µg/mL]
19 | B1 | 0.788
20 | B2 | 0.268
21 | B3 | > 10
22 | B4 | > 10
23 | B5 | > 10
24 | B6 | > 10

Target: SARS-CoV-2 Omicron BQ.1.1 spike pseudovirus
Assay: as above
Method: as §1

Row | Binder | pseudovirus neutralization IC50 [µg/mL]
25 | B1 | 0.528
26 | B2 | 1.3
27 | B3 | > 10
28 | B4 | > 10
29 | B5 | > 10
30 | B6 | > 10

Target: SARS-CoV-2 Omicron XBB spike pseudovirus
Assay: as above
Method: as §1

Row | Binder | pseudovirus neutralization IC50 [µg/mL]
31 | B1 | 0.81
32 | B2 | 1.12
33 | B3 | > 10
34 | B4 | > 10
35 | B5 | > 10
36 | B6 | > 10

Target: SARS-CoV-2 early D614G spike pseudovirus
Assay: as above
Method: as §1

Row | Binder | pseudovirus neutralization IC50 [µg/mL]
37 | B1 | 0.913
38 | B2 | 1.15
39 | B3 | > 10
40 | B4 | > 10
41 | B5 | 0.00672
42 | B6 | > 10
